Experimental data: PubChem BioAssay AID504592 (Broad Institute, 2011)
This is a selection; strong and weak results do not stand in their true shares. Records with an inconclusive call do not appear. Activity calls are given as the source filed them. No stated cut-off is given here; in the data, active means inhibition above about 54%; inconclusive means no clear call, values can overlap the other calls; inactive means below that.

test: prion 5' UTR mRNA inhibition, cherry-pick retest (AID 504592); conditions: cell-based prion protein 5' UTR reporter, plate reader; at 2.5 µM; stronger effect = higher value

Row | Structure (SMILES) | inhibition
1 | O=P(Nc1ccccn1)(c1cccc2ccccc12)c1cccc2ccccc12 | inactive: -14.5%
2 | CN(C(=O)Cc1ccc(Cl)c(Cl)c1)[C@H]1CCCC[C@@H]1N1CCCC1 | inactive: -18.7%
